The assay concerns infected target cells. Put plainly: in vitro eradication assay, HIV-specific T cells co-cultured with infected target cells. In kind it is cell-based. Conditions: in the presence of the latency reversing drug; FIG. 4. An excerpt: The in vitro cell eradication assay presented in this Example was directed to determining if T pharmacytes can induce expression of HIV expression in latently infected cells and kill those cells. HIV-specific T cells and Cytomegalovirus (CMV)-specific T cells were co-cultured with infected target cells (and mock-infected target cells) without the addition of any exogenous cytokines.

“IL-2: cytokine used as latency reversing drug”: the “response of HIV-specific T cells to infected target cells” value was “specifically respond to these infected target cells only in the presence of latency reversing drugs”.

(Values after patent publication US9415070B2, “Methods and compositions for localized delivery of agents to virally infected cells and tissues” (Massachusetts Institute of Technology, priority 2012, dated 2016).)
